Laboratory results: paper PMC12457685 (Scientific Reports, 2025)
The structures given here were assigned with low confidence; some may be wrong.

Key:
Format in all cases: binding
SARS-CoV-2 spike protein = SARS-CoV-2 spike protein (Severe acute respiratory syndrome coronavirus 2, UniProt P0DTC2, A892P/A899P/A942P/F817P/K986P/R682G/R683S/R685S/V987P); assay: SPR multi-cycle kinetics, full SARS-CoV-2 spike protein over immobilized ACE2 epitopes; details: for ka / kd: SPR individual measurement
SARS-CoV-1 RBD = SARS-CoV-1 RBD (Severe acute respiratory syndrome coronavirus, UniProt P59594); assay: SPR multi-cycle kinetics, SARS-CoV-1 RBD over immobilized ACE2 epitopes; details: for Kd / ka / kd: SPR individual measurement
SARS-CoV-2 Alpha RBD = SARS-CoV-2 Alpha RBD (Severe acute respiratory syndrome coronavirus 2, UniProt P0DTC2); assay: SPR multi-cycle kinetics, SARS-CoV-2 Alpha RBD over immobilized ACE2 epitopes; details: for ka / kd: SPR individual measurement
SARS-CoV-2 Delta RBD = SARS-CoV-2 Delta RBD (Severe acute respiratory syndrome coronavirus 2, UniProt P0DTC2, L452R/T478K); assay: SPR multi-cycle kinetics, SARS-CoV-2 Delta RBD over immobilized ACE2 epitopes
[1] = replicate 1 (first printed line)
[2] = replicate 2 (second printed line)
[3] = SPR individual measurement, replicate 1 (first printed line)
[4] = SPR individual measurement, replicate 2 (second printed line)

C#CC[C@H](NC(=O)[C@@H](NC(=O)[C@H](CC(C)C)NC(=O)[C@H](CCSC)NC(=O)[C@H](CO)NC(=O)[C@H](CC(N)=O)NC(=O)[C@H](CCC(=O)O)NC(=O)[C@H](Cc1c[nH]c2ccccc12)NC(=O)[C@H](Cc1ccccc1)NC(=O)CNC(=O)[C@H](CCC(N)=O)NC(=O)[C@@H](NC(=O)[C@@H](N)CCSC)[C@@H](C)O)[C@@H](C)O)C(N)=O
ka (SARS-CoV-2 spike protein; [1]): 7,5e3 M-1s-1 | kd (SARS-CoV-2 spike protein; [1]): 1,53e-3 s-1 | ka (SARS-CoV-2 spike protein; [2]): 6,2e3 M-1s-1 | kd (SARS-CoV-2 spike protein; [2]): 6,386e-3 s-1 | binding (in words) (SARS-CoV-2 spike protein; single-epitope sensor, SPR, full spike protein): did not show measurable signals attributable to effective interactions with the spike protein | Kd (SARS-CoV-1 RBD; [1]): 1.87 µM | ka (SARS-CoV-1 RBD; [1]): 5,32e3 M-1s-1 | kd (SARS-CoV-1 RBD; [1]): 9,97e-3 s-1 | Kd (SARS-CoV-1 RBD; [2]): 3.28 µM | ka (SARS-CoV-1 RBD; [2]): 2,50e3 M-1s-1 | kd (SARS-CoV-1 RBD; [2]): 8,20e-3 s-1 | binding (in words) (SARS-CoV-1 RBD; single-epitope sensor, SPR): only weak interactions were detected | ka (SARS-CoV-2 Alpha RBD; [1]): 8,39e3 M-1s-1 | kd (SARS-CoV-2 Alpha RBD; [1]): 2,68e-3 s-1 | ka (SARS-CoV-2 Alpha RBD; [2]): 7,83e3 M-1s-1 | kd (SARS-CoV-2 Alpha RBD; [2]): 5,11e-3 s-1 | binding (in words) (SARS-CoV-2 Alpha RBD; single-epitope sensor, SPR): only weak interactions were detected | Kd (SARS-CoV-2 Delta RBD; [3]): 5.44 µM | ka (SARS-CoV-2 Delta RBD; [3]): 1,83e3 M-1s-1 | kd (SARS-CoV-2 Delta RBD; [3]): 9,97e-3 s-1 | ka (SARS-CoV-2 Delta RBD; [4]): 4,43e3 M-1s-1 | kd (SARS-CoV-2 Delta RBD; [4]): 2,64e-3 s-1 | binding (in words) (SARS-CoV-2 Delta RBD; single-epitope sensor, SPR): only weak interactions were detected
